Holding throughout (details): exposure 4× MIC
The subject of experiment [1] is S. aureus RN4220. Format: cell-based, Staphylococcus aureus.
Experiment [2] has as its system S. aureus KCTC 1916. In kind it is cell-based, Staphylococcus aureus.
For experiment [3], the system named is E. coli KCTC 1924. In kind it is cell-based.

For `Oc1cc(Cl)ccc1Oc1ccc(Cl)cc1Cl` [Triclosan, reference compound], the Frequency of resistance in experiment [1] is 3.30±0.13×10^−8; in experiment [2], 2.58±0.04×10^−9; in experiment [3], 9.07±0.08×10^−8.

Source of the values: publication PMC3842914, “Meleagrin, a New FabI Inhibitor from Penicillium chryosogenum with at Least One Additional Mode of Action” (PLoS ONE, 2013).
